From ChEMBL document CHEMBL1135511, “Structure activity of 3-aryl-1,3-diketo-containing compounds as HIV-1 integrase inhibitors” (J Med Chem, 2002)

How the values were obtained:
Homo sapiens [1] = species: Homo sapiens; assay: Antiviral activity against envelope deficient HIV-1 in a single cycle replication assay (experiment 2); type: functional
Homo sapiens [2] = species: Homo sapiens; assay: Antiviral activity against envelope deficient HIV-1 in a single cycle replication assay (experiment 1); type: functional

## 2-Hydroxy-4-oxo-4-ferrosinyl-but-2-enoic acid
Homo sapiens [1]
  Control: 69%
Homo sapiens [2]
  Control: 36%
